Measured values from several laboratories, pooled; numbers as filed in NIAID ChemDB.

Shared fields: enzyme or target tests; species: HIV-1; target: Protease

Two numbers with a dash give a range or band. ICn is the concentration giving n% inhibition. Blank or dashed fields: not listed here. Lines come from different laboratories, so protocols vary.

| SMILES | read by | endpoint | result |
|---|---|---|---|
| CC(C)(CCNS(C)(=O)=O)CN(C[C@@H](O)[C@H](Cc1ccccc1)NC(=O)O[C@H]1CO[C@H]2OCC[C@H]21)S(=O)(=O)c1cccc(N)c1 | fluorescence | Ki | <0.001 µM |
| COc1ccc(S(=O)(=O)N(CC(C)C)C[C@@H](O)[C@H](Cc2ccccc2)NC(=O)OCO[C@H]2C[C@H]3OCC4(CC[C@@H](OC)O4)[C@H]3C2)cc1 | substrate cleavage / fluorescence | Ki | 0.00081 µM |
| CSCC[C@H](NC(=O)CCCCCCCCCCCCCCC(=O)N[C@@H](CCSC)C(=O)N[C@@H](CC(C)C)C(=O)N[C@@H](Cc1ccccc1)C(N)=O)C(=O)N[C@@H](Cc1ccccc1)C(=O)O | HPLC | IC50 | 0.58 µM |
| CC(C)c1nc(CN(C)C(=O)N[C@H](C(=O)NN(Cc2ccccc2)C[C@H](O)[C@H](Cc2ccccc2)NC(=O)OCc2ccccc2)C(C)C)cs1 | fluorescence | IC50 | <0.0005 µM |
| CC(C)(CCOC(=O)N1CCCC1)CN(C[C@@H](O)[C@H](Cc1ccccc1)NC(=O)O[C@H]1CO[C@H]2OCC[C@H]21)S(=O)(=O)c1ccc2c(c1)OCO2 | fluorescence | Ki | <0.001 µM |
| O=C1C(Cc2ccccc2)(Cc2ccccc2)[C@@H]2COC[C@H]2C1(Cc1ccccc1)Cc1ccccc1 | - | IC50 | 70–100 µM |
| CS(=O)(=O)C[C@H](NC(=O)COc1cccc2ccccc12)C(=O)N[C@@H](Cc1ccccc1)[C@H](O)C(=O)N1CSC[C@H]1C(=O)NCC(N)=O | - | IC50 | >0.05 µM |
| C=CCC1(CC=C)C(O)C(CC=C)(CC=C)[C@@H]2COC[C@H]21 | - | IC50 | 70–100 µM |
| CCOC(=O)c1cn(CC(O)CNc2ccccc2C)cc1-c1ccccc1 | - | IC50 | >200 µM |
| CC(C)(CCCNS(C)(=O)=O)CN(C[C@@H](O)[C@H](Cc1ccccc1)NC(=O)O[C@H]1CO[C@H]2OCC[C@H]21)S(=O)(=O)c1cccc2c1OCCO2 | fluorescence | Ki | <0.001 µM |
| CCOC(=O)c1cc2cc(Cl)ccc2n1CC(O)CNc1ccccc1C(=O)OC | - | IC50 | 72 µM |
| CC(C)(CCCNC(=O)c1ccc2c(c1)OCO2)CN(C[C@@H](O)[C@H](Cc1ccccc1)NC(=O)O[C@H]1CO[C@H]2OCC[C@H]21)S(=O)(=O)c1ccc2c(c1)OCO2 | fluorescence | Ki | <0.001 µM |
| COc1ccc(S(=O)(=O)N(CC(C)C)C[C@@H](O)[C@H](Cc2ccccc2)NC(=O)[C@@H]2CCCC3(C2)OCCO3)cc1 | fluorescence | Ki | 0.014 µM |
| CC(C)(CCOC(N)=O)CN(C[C@@H](O)[C@H](Cc1ccccc1)NC(=O)O[C@H]1CO[C@H]2OCC[C@H]21)S(=O)(=O)c1ccc2c(c1)OCO2 | fluorescence | Ki | <0.001 µM |
| OC1C(C/C=C/c2ccccc2)(C/C=C/c2ccccc2)[C@@H]2COC[C@H]2C1(C/C=C/c1ccccc1)C/C=C/c1ccccc1 | - | IC50 | 70–100 µM |
| CC(C)(C)NC(=O)c1ccccc1NCC(O)Cn1c(C(=O)NC(C)(C)C)cc2ccccc21 | - | IC50 | 57 µM |
| N[C@@H](Cc1ccccc1)C(=O)NC(Sc1ccccc1)C(=O)O | HPLC | IC50 | >50 µM |
| CC(C)c1nc(COC(=O)N[C@H](C(=O)N[C@@H](Cc2ccccc2)[C@@H](O)CN(Cc2ccc(O)cc2)NC(=O)OC(C)(C)C)C(C)C)co1 | fluorescence | IC50 | <0.0005 µM |
| CC(C)C[C@H](NC(=O)[C@@H](NC(=O)CCCCCCCCCCCCCCC(=O)N[C@@H](CC(N)=O)C(=O)N[C@@H](Cc1ccccc1)C(=O)O)C(C)O)C(=O)N[C@@H](Cc1ccc(-c2ccccc2)cc1)C(N)=O | HPLC | IC50 | 1.09 µM |
| CCOC(=O)c1cn(CC(O)CNc2ccccc2Cl)cc1-c1ccccc1 | - | IC50 | >200 µM |
| CCCN=C(NC#N)NCCCCCC(C)(C)CN(C[C@@H](O)[C@H](Cc1ccccc1)NC(=O)O[C@H]1CO[C@H]2OCC[C@H]21)S(=O)(=O)c1ccc2c(c1)OCO2 | fluorescence | Ki | <0.001 µM |
| CC(C)[C@H](N)C(=O)N[C@H](C(=O)N[C@@H](Cc1ccccc1)[C@@H](O)C(=O)N[C@@H](Cc1ccccc1)C(=O)N[C@H](C(=O)N[C@H](C(N)=O)C(C)C)C(C)C)C(C)C | - | IC50 | <5 µM |
| CCOC(=O)c1ccccc1SCC(O)Cn1cc(C(=O)OCC)c(-c2ccccc2)c1 | - | IC50 | 200 µM |
| CC(O)[C@H](NC(=O)CCCCCCCCCCCCCCC(=O)N[C@@H](CC(N)=O)C(=O)N[C@@H](CCc1ccccc1)C(=O)O)C(=O)N[C@H](C(=O)N[C@@H](Cc1ccccc1)C(N)=O)C1CCCCC1 | HPLC | IC50 | 0.65 µM |
| CSC[C@H](NC(=O)COc1cccc2ccccc12)C(=O)N[C@@H](Cc1ccccc1)[C@H](O)C(=O)N1CSC(C)(C)[C@H]1C(=O)NC(C)(C)C | - | IC50 | <0.05 µM |
| COC(=O)[C@@H](NC(=O)[C@@H](NC(=O)[C@H](C)CC(=O)[C@H](Cc1ccccc1)NC(=O)OC(C)(C)C)C(C)C)C(C)C | HPLC | Ki | >1 µM |
| CCOC(=O)c1cn(CC(O)CNc2cccc(C)c2)cc1-c1ccccc1 | - | IC50 | >200 µM |
| CC(C)(CCCOC(=O)N1CCCC1)CN(C[C@@H](O)[C@H](Cc1ccccc1)NC(=O)O[C@H]1CO[C@H]2OCC[C@H]21)S(=O)(=O)c1ccc2c(c1)OCO2 | fluorescence | Ki | <0.001 µM |
| CC(C)[C@H](NC(=O)[C@H](C)C[C@H](O)[C@H](Cc1ccccc1)NC(=O)[C@H](C)NC(=O)OCc1ccccc1)C(N)=O | HPLC | Ki | 0.05 µM |
| CC(C)(C)CC(=O)NCCCC(C)(C)CN(C[C@@H](O)[C@H](Cc1ccccc1)NC(=O)O[C@H]1CO[C@H]2OCC[C@H]21)S(=O)(=O)c1ccc2c(c1)OCO2 | fluorescence | Ki | <0.001 µM |
| CC(C)(C)OC(=O)N[C@H](Cc1ccccc1)/C(O)=C(\C#N)c1c(F)c(F)c(F)c(F)c1F | HPLC | IC50 | 19 µM |
| COC(=O)NCCCC(C)(C)CN(C[C@@H](O)[C@H](Cc1ccccc1)NC(=O)O[C@H]1CO[C@H]2OCC[C@H]21)S(=O)(=O)c1cccc2c1OCCO2 | fluorescence | Ki | <0.001 µM |
| COc1ccc(S(=O)(=O)N(CC(C)C)C[C@@H](O)[C@H](Cc2ccccc2)NC(=O)OCO[C@H]2C[C@H]3OCC4(CC[C@H](OC)O4)[C@H]3C2)cc1 | substrate cleavage / fluorescence | Ki | 0.00038 µM |
| CC(C)C[C@H](NC(=O)[C@@H](NC(=O)CCCCCCCCCCCCCCC(=O)N[C@@H](CC(N)=O)C(=O)N[C@@H](CC1CCCCC1)C(=O)O)C(C)O)C(=O)N[C@@H](Cc1cc(I)c(Oc2cc(I)c(O)c(I)c2)c(I)c1)C(N)=O | HPLC | Ki | 0.0351 µM |
| COc1ccc(S(=O)(=O)N(CC(C)C)C[C@@H](O)[C@H](Cc2ccccc2)NC(=O)C2CCCC3(CCCC3)C2)cc1 | fluorescence | Ki | 0.685 µM |
| CC(C)c1nc(CN(C)C(=O)N[C@H](C(=O)NN(Cc2ccc(O)cc2)C[C@H](O)[C@H](Cc2ccccc2)NC(=O)OCc2cncs2)C(C)C)cs1 | fluorescence | IC50 | <0.0005 µM |
| CCN(CC)C(=O)NCCCCC(C)(C)CN(C[C@@H](O)[C@H](Cc1ccccc1)NC(=O)O[C@H]1CO[C@H]2OCC[C@H]21)S(=O)(=O)c1ccc2c(c1)OCO2 | fluorescence | Ki | <0.001 µM |
| CC(C)(C)NC(=O)[C@H]1N(C(=O)[C@@H](O)[C@H](Cc2ccccc2)NC(=O)[C@H](CC(N)=O)NC(=O)COc2cccc3ccccc23)CSC1(C)C | - | IC50 | <0.05 µM |
| CCCNC(=O)OCCCCC(C)(C)CN(C[C@@H](O)[C@H](Cc1ccccc1)NC(=O)O[C@H]1CO[C@H]2OCC[C@H]21)S(=O)(=O)c1ccc2c(c1)OCO2 | fluorescence | Ki | <0.001 µM |
| CC(C)c1nc(CN(C)C(=O)N[C@H](C(=O)NN(Cc2ccoc2)C[C@H](O)[C@H](Cc2ccccc2)NC(=O)OCc2cncs2)C(C)C)cs1 | fluorescence | IC50 | <0.0005 µM |
| CC(C)C[C@H](NC(=O)CCCCCCCCCCCCCCC(=O)N[C@@H](CS(C)(=O)=O)C(=O)N[C@@H](Cc1ccccc1)C(=O)O)C(=O)N[C@@H](CC(C)C)C(=O)N[C@@H](Cc1ccccc1)C(N)=O | HPLC | IC50 | 0.47 µM |
| CC(C)(CCNC(=O)NCc1ccccc1)CN(C[C@@H](O)[C@H](Cc1ccccc1)NC(=O)O[C@H]1CO[C@H]2OCC[C@H]21)S(=O)(=O)c1ccc2c(c1)OCO2 | fluorescence | Ki | <0.001 µM |
| COc1ccc(S(=O)(=O)N(CC(C)C)C[C@@H](O)[C@H](Cc2ccccc2)NC(=O)[C@@H]2CCC[C@@]3(CCCO3)C2)cc1 | fluorescence | Ki | 0.26 µM |
| CCOC(=O)c1cn(CC(O)CNc2ccccc2N)cc1-c1ccccc1 | - | IC50 | >200 µM |
| CC(C)c1nc(CN(C)C(=O)N[C@H](C(=O)NN(Cc2cccc(O)c2)C[C@H](O)[C@H](Cc2ccccc2)NC(=O)OCc2cncs2)C(C)C)cs1 | fluorescence | IC50 | ~0.0005 µM |
| CC(C)(CCCCOC(=O)NCCO)CN(C[C@@H](O)[C@H](Cc1ccccc1)NC(=O)O[C@H]1CO[C@H]2OCC[C@H]21)S(=O)(=O)c1ccc2c(c1)OCO2 | fluorescence | Ki | <0.001 µM |
| CC(C)c1nc(CN(C)C(=O)N[C@H](C(=O)NN(Cc2ccccc2)C[C@H](O)[C@H](Cc2ccccc2)NC(=O)OCc2cncs2)C(C)C)co1 | fluorescence | IC50 | <0.0005 µM |
| CC(C)(CCCNC(=O)c1ccco1)CN(C[C@@H](O)[C@H](Cc1ccccc1)NC(=O)O[C@H]1CO[C@H]2OCC[C@H]21)S(=O)(=O)c1ccc2c(c1)OCO2 | fluorescence | Ki | <0.001 µM |
| Cc1ccccc1CNC(=O)C1N(C(=O)[C@@H](O)[C@H](Cc2cccc(F)c2)NC(=O)c2cccc(O)c2C)CC(F)(F)C1(C)C | - | Ki | <0.0001 µM |
| CCOC(=O)NCCC(C)(C)CN(C[C@@H](O)[C@H](Cc1ccccc1)NC(=O)O[C@H]1CO[C@H]2OCC[C@H]21)S(=O)(=O)c1ccc2c(c1)OCO2 | fluorescence | Ki | <0.001 µM |
| NC(=O)C[C@H](NC(=O)[C@@H](N)Cc1ccccc1)C(=O)N[C@@H](Cc1ccccc1)[C@H](O)C(=O)NCC1CCCCC1 | - | IC50 | <1000 µM |
| CN(C)C(=O)OCCCCC(C)(C)CN(C[C@@H](O)[C@H](Cc1ccccc1)NC(=O)O[C@H]1CO[C@H]2OCC[C@H]21)S(=O)(=O)c1ccc2c(c1)OCO2 | fluorescence | Ki | <0.001 µM |
| CC(C)C[C@H](NC(=O)[C@@H](NC(=O)CCCCCCCCCCCCCCC(=O)N[C@@H](CS(C)(=O)=O)C(=O)N[C@@H](Cc1ccccc1)C(=O)O)C(C)C)C(=O)N[C@@H](Cc1ccccc1)C(N)=O | HPLC | IC50 | 0.48 µM |
| CC(C)(CCCCCNC(=O)CO)CN(C[C@@H](O)[C@H](Cc1ccccc1)NC(=O)O[C@H]1CO[C@H]2OCC[C@H]21)S(=O)(=O)c1ccc2c(c1)OCO2 | fluorescence | Ki | <0.001 µM |
| O=C(O)/C=C/c1ccc(O)c(O)c1 | HPLC | IC50 | >100 µM |
| Cc1c(O)cccc1C(=O)N[C@@H](Cc1cccc(F)c1)[C@H](O)C(=O)N1CC(F)(F)C(C)(C)[C@H]1C(=O)NCC(F)(F)F | - | Ki | <0.0001 µM |

A second listing of 6 rows from above:

SMILES,read by,endpoint,result
OC1C(C/C=C/c2ccccc2)(C/C=C/c2ccccc2)[C@@H]2COC[C@H]2C1(C/C=C/c1ccccc1)C/C=C/c1ccccc1,-,IC50,70–100 µM
COC(=O)[C@@H](NC(=O)[C@@H](NC(=O)[C@H](C)CC(=O)[C@H](Cc1ccccc1)NC(=O)OC(C)(C)C)C(C)C)C(C)C,HPLC,Ki,>1 µM
CCOC(=O)c1cn(CC(O)CNc2cccc(C)c2)cc1-c1ccccc1,-,IC50,>200 µM
CC(C)C[C@H](NC(=O)CCCCCCCCCCCCCCC(=O)N[C@@H](CS(C)(=O)=O)C(=O)N[C@@H](Cc1ccccc1)C(=O)O)C(=O)N[C@@H](CC(C)C)C(=O)N[C@@H](Cc1ccccc1)C(N)=O,HPLC,IC50,0.47 µM
CC(C)(C)OC(=O)N[C@H](Cc1ccccc1)/C(O)=C(\C#N)c1c(F)c(F)c(F)c(F)c1F,HPLC,IC50,19 µM
CC(C)(CCCOC(=O)N1CCCC1)CN(C[C@@H](O)[C@H](Cc1ccccc1)NC(=O)O[C@H]1CO[C@H]2OCC[C@H]21)S(=O)(=O)c1ccc2c(c1)OCO2,fluorescence,Ki,<0.001 µM